Compound potency records, mixed from different reports. Data source: NIAID ChemDB in PubChem.

Shared fields: target-level tests; agent: HIV-1; protein: Integrase; endpoint: IC50

Neighbouring rows are from separate reports. a–b is a range or a potency band. ICn: concentration for n% inhibition. Blank or dashed fields: not listed here.

{"compound": "O=C(C1=NS(=O)(=O)c2ccc(Cl)cc2S1)c1ccc(Cl)c(Cl)c1", "mutations": "INTG-C65S", "method": "3′ processing", "value": "47 µM"}
{"compound": "CC(C)Cc1cc(=O)c(O)c2n1CCN(Cc1ccc(Cl)c(Cl)c1)C2=O", "method": "ELISA", "value": "0.01–0.1 µM"}
{"compound": "Cn1cc(CN2CCn3c(nc(C(=O)NCc4ccc(F)cc4)c(O)c3=O)C2(C)C)nn1", "method": "ELISA", "value": "<10 µM"}
{"compound": "N#C/C(=C\\c1ccc(O)c(O)c1)C(=S)NCc1ccccc1", "method": "strand transfer", "value": "10–100 µM"}
{"compound": "O=C(O)/C(O)=C/C(=O)N(Cc1ccc(F)cc1)Cc1ccccc1Cl", "method": "strand transfer", "value": "<70 µM"}
{"compound": "CCOC(=O)/C=C/c1ccc2c(c1)c(=O)c(/C(O)=C/C(=O)C(=O)OCC)cn2Cc1ccc(F)cc1", "method": "3′ processing", "value": ">300 µM"}
{"compound": "O=C1c2c(O)c(=O)n(C3CCS(=O)(=O)c4ccccc43)c(=O)n2CCN1Cc1ccc(F)cc1", "method": "strand transfer", "value": "<10 µM"}
{"compound": "c1cnc2c(CSc3nc4ccccc4s3)cccc2c1", "method": "3′ processing", "value": ">1000 µM"}
{"compound": "CN(Cc1cccc(Oc2ccccc2)c1)C(=O)/C=C(\\O)C(=O)O", "method": "strand transfer", "value": "<70 µM"}
{"compound": "N#C/C(=C\\c1cc(O)c(O)c(O)c1)C(=O)NCCCNC(=O)/C(C#N)=C/c1cc(O)c(O)c(O)c1", "method": "strand transfer", "value": "0.16 µM"}
{"compound": "Cc1cc(Cl)cc2c1S(=O)(=O)N=C(C(=O)c1ccc(Cl)cc1)S2", "method": "3′ processing", "value": "27 µM"}
{"compound": "N#C/C(=C\\c1ccccc1)S(=O)(=O)/C(C#N)=C/c1ccc(O)c(O)c1", "method": "strand transfer", "value": "1.2 µM"}
{"compound": "CN(C)C(=O)C1CN(Cc2ccc(Cl)c(Cl)c2)C(=O)c2c(O)c(=O)ccn21", "method": "ELISA", "value": "0.1–1 µM"}
{"compound": "CN(Cc1ccc(Cl)cc1)C(=O)/C=C(\\O)C(=O)O", "method": "strand transfer", "value": "<70 µM"}
{"compound": "O=C1c2c(O)c(=O)c(-c3nccs3)cn2CCN1CCCc1ccc(Cl)cc1", "method": "ELISA", "value": "0.01–0.1 µM"}
{"compound": "Oc1ccc(/C=C/c2ccc(O)c(O)c2)cc1O", "method": "3′ processing / substrate cleavage", "value": "5–10 µM"}
{"compound": "O=C(Nc1ccc2c(O)c(N=Nc3cccc(C(=O)O)c3)c(S(=O)(=O)O)cc2c1)C(=O)Nc1ccc2c(O)c(N=Nc3cccc(C(=O)O)c3)c(S(=O)(=O)O)cc2c1", "method": "3′ processing", "value": "1 µM"}
{"compound": "CC(C)n1c(=O)c(O)c2n(c1=O)C(CCO)CN(Cc1ccc(F)cc1)C2=O", "method": "strand transfer", "value": "<10 µM"}
{"compound": "O=C(O)/C(O)=C/C(=O)N(Cc1ccc(F)cc1)Cc1ccc2ccccc2c1", "method": "strand transfer", "value": "<70 µM"}
{"compound": "CC(C)n1c(=O)c(O)c2n(c1=O)C(CCN(C)C(=O)c1ccccc1)CN(Cc1ccc(F)cc1)C2=O", "method": "strand transfer", "value": "<10 µM"}
{"compound": "Cc1cc2c(cc1Cl)SC(C(=O)c1ccc(Cl)cc1)=NS2(=O)=O", "mutations": "INTG-C65S", "method": "3′ processing", "value": "33 µM"}
{"compound": "N#C/C(=C\\c1cc(O)c(O)c(O)c1)C(N)=O", "method": "3′ processing / substrate cleavage", "value": "10–100 µM"}
{"compound": "O=C1C(=O)N(Cc2ccccc2Cl)c2ccccc21", "method": "strand transfer", "value": "600 µM"}
{"compound": "CN1CCN(CCC2CN(Cc3ccc(F)cc3)C(=O)c3c(O)c(=O)n(C4CC4)c(=S)n32)CC1", "method": "strand transfer", "value": "<10 µM"}
{"compound": "O=C(Nc1ccc2c(O)c(N=Nc3ccc(C(=O)O)cc3)c(S(=O)(=O)O)cc2c1)C(=O)Nc1ccc2c(O)c(N=Nc3ccc(C(=O)O)cc3)c(S(=O)(=O)O)cc2c1", "method": "strand transfer", "value": "1 µM"}
{"compound": "N#C/C(=C\\c1ccc(O)c(O)c1)C(=O)NCC1CCCC(CNC(=O)/C(C#N)=C/c2ccc(O)c(O)c2)C1", "method": "3′ processing / substrate cleavage", "value": "10–100 µM"}
{"compound": "O=C1c2c(O)c(=O)n(C3Cc4ccccc4C3)c(=O)n2CCN1Cc1ccc(F)cc1", "method": "strand transfer", "value": "<10 µM"}
{"compound": "CC(C)OCc1cc(=O)c(O)c2n1CCN(Cc1ccc(Cl)c(Cl)c1)C2=O", "method": "ELISA", "value": "0.01–0.1 µM"}
{"compound": "O=C(O)c1ccc(N=Nc2c(S(=O)(=O)O)cc3cc(S(=O)(=O)O)c(N=Nc4ccc(C(=O)O)cc4)c(O)c3c2O)cc1", "method": "strand transfer", "value": "3.5 µM"}
{"compound": "O=C(C1=NS(=O)(=O)c2ccc(Cl)cc2S1)c1ccc(Cl)cc1", "mutations": "INTG-C65S", "method": "strand transfer", "value": "100 µM"}
{"compound": "O=C1c2c(O)c(=O)n(CC3COCCN3Cc3ccccc3)c(=O)n2CCN1Cc1ccc(F)cc1", "method": "strand transfer", "value": "<10 µM"}
{"compound": "CC(=O)C(=O)Nc1cn2ccn(Cc3cccc(Cl)c3)c(=O)c2c(O)c1=O", "method": "ELISA", "value": "<0.01 µM"}
{"compound": "Cc1cc(=O)n(-c2ccc(Br)cc2F)n1C(=O)c1ccco1", "method": "3′ processing", "value": ">1000 µM"}
{"compound": "CN(Cc1ccccc1OCc1ccc(F)cc1)C(=O)/C=C(\\O)C(=O)O", "method": "strand transfer", "value": "<70 µM"}
{"compound": "Cc1cc(CNC(=O)c2nc3n(c(=O)c2O)CCNCC3N(C)C(=O)C(=O)N(C)C)ccc1F", "method": "ELISA", "value": "<10 µM"}
{"compound": "O=C1c2c(O)c(=O)n(CC3COCCN3)c(=O)n2CCN1Cc1ccc(F)cc1", "method": "strand transfer", "value": "<10 µM"}
{"compound": "Cc1cc(CNC(=O)c2nc3n(c(=O)c2O)CCN(C2CC2)CC3N(C)C(=O)C(=O)N(C)C)ccc1F", "method": "ELISA", "value": "<10 µM"}
{"compound": "O=C1c2c(O)c(=O)n(N3CCCCCC3)c(=O)n2CCN1Cc1ccc(F)cc1", "method": "strand transfer", "value": "<10 µM"}
{"compound": "N#C/C(=C\\c1ccc(O)c(O)c1)C(=O)Nc1cccc(C(=O)O)c1", "method": "3′ processing / substrate cleavage", "value": "10–100 µM"}
{"compound": "COc1ccnc(CNC(=O)c2cn3c(c(O)c2=O)C(=O)N(Cc2ccc(F)cc2)CC3)n1", "method": "ELISA", "value": "0.01–0.1 µM"}
{"compound": "CC1(C)c2nc(C(=O)NCc3ccc(F)cc3)c(O)c(=O)n2CCN1CCc1ccccn1", "method": "ELISA", "value": "<10 µM"}
{"compound": "CN(Cc1ccc(OCc2ccccc2)cc1)C(=O)/C=C(\\O)C(=O)O", "method": "strand transfer", "value": ">70 µM"}
{"compound": "N#C/C(=C\\c1ccc(O)c(O)c1)C(=O)NCCCNC(=O)/C(C#N)=C/c1ccc(O)c(O)c1", "method": "disintegration", "value": "8.6 µM"}
{"compound": "O=C(O)CC(C(=O)O)c1ccc(N=Nc2c(S(=O)(=O)O)cc3cc(NC(=O)C(=O)Nc4ccc5c(O)c(N=Nc6ccc(C(CC(=O)O)C(=O)O)cc6)c(S(=O)(=O)O)cc5c4)ccc3c2O)cc1", "method": "3′ processing", "value": "0.8 µM"}
{"compound": "Cc1cc2c(cc1Cl)SC(C(=O)c1cccc([N+](=O)[O-])c1)=NS2(=O)=O", "mutations": "INTG-C65S", "method": "strand transfer", "value": "80 µM"}
{"compound": "CC(C)n1c(=O)c(O)c2n(c1=O)C(CCOCc1ccccc1)CN(Cc1ccc(F)cc1)C2=O", "method": "strand transfer", "value": "<10 µM"}
{"compound": "CC(C)(C)COC(=O)c1cn2ccn(Cc3cccc(Cl)c3)c(=O)c2c(O)c1=O", "method": "ELISA", "value": "0.01–0.1 µM"}
{"compound": "O=[N+]([O-])c1ccc(CS(=O)(=O)c2nc3ccccc3s2)cc1", "method": "3′ processing", "value": ">1000 µM"}
{"compound": "O=C(Nc1cn2ccn(Cc3cccc(Cl)c3)c(=O)c2c(O)c1=O)c1ccc(F)cc1", "method": "ELISA", "value": "<0.01 µM"}
{"compound": "O=C(Nc1ccc2c(O)c(N=Nc3cc(F)c(F)c(C(=O)O)c3F)c(S(=O)(=O)O)cc2c1)Nc1ccc2c(O)c(N=Nc3cc(F)c(F)c(C(=O)O)c3F)c(S(=O)(=O)O)cc2c1", "method": "strand transfer", "value": "1 µM"}

Repeating the first 5 entries:

compound | mutations | method | value
O=C(C1=NS(=O)(=O)c2ccc(Cl)cc2S1)c1ccc(Cl)c(Cl)c1 | INTG-C65S | 3′ processing | 47 µM
CC(C)Cc1cc(=O)c(O)c2n1CCN(Cc1ccc(Cl)c(Cl)c1)C2=O | - | ELISA | 0.01–0.1 µM
Cn1cc(CN2CCn3c(nc(C(=O)NCc4ccc(F)cc4)c(O)c3=O)C2(C)C)nn1 | - | ELISA | <10 µM
N#C/C(=C\c1ccc(O)c(O)c1)C(=S)NCc1ccccc1 | - | strand transfer | 10–100 µM
O=C(O)/C(O)=C/C(=O)N(Cc1ccc(F)cc1)Cc1ccccc1Cl | - | strand transfer | <70 µM